According to ChEMBL document CHEMBL4665731, “Antifungal trichothecene sesquiterpenes obtained from the culture broth of marine-derived Trichoderma cf. brevicompactum and their structure-activity relationship” (2020):
≈ marks a conversion by molar mass, not a printed value.

tested on: Cryptococcus neoformans; assay: Antifungal activity against Cryptococcus neoformans ATCC 14116 assessed as reduction in fungal growth incubated for 72 hrs by CLSI broth microdilution method; format: functional

| Structure (SMILES) | MIC90 [µg/mL] |
| --- | --- |
| CC(=O)O[C@@H]1[C@@H](OC(C)=O)[C@]2(C)[C@@]3(C)CCC(C)=C[C@H]3O[C@H]1[C@@]21CO1 | 25 (≈ 71.3 µM) |
| CC(=O)O[C@@H]1[C@@H](O)[C@]2(C)[C@@]3(C)CCC(C)=C[C@H]3O[C@H]1[C@@]21CO1 | > 50 |
| C/C=C/C=C\C(=O)O[C@@H]1[C@@H](OC(C)=O)[C@H]2O[C@@H]3C=C(C)CC[C@]3(C)[C@]1(C)[C@]21CO1 | 6.3 (≈ 15.7 µM) |
| CCCC(=O)O[C@@H]1[C@@H](O)[C@]2(C)[C@@]3(C)CCC(C)=C[C@H]3O[C@H]1[C@@]21CO1 | > 50 |
| CCCC(=O)O[C@@H]1[C@@H](OC(=O)CCC)[C@]2(C)[C@@]3(C)CCC(C)=C[C@H]3O[C@H]1[C@@]21CO1 | > 50 |
